Assay results reported in the supplement of paper PMC9931576.
Human monoclonal antibodies against the spike receptor-binding domain (heavy:light variable regions). IC50 against pseudoviruses bearing the spike of naturally observed variants; lower = stronger; >10 µg/ml means not reached at the top dose. No active / inactive call. The stated detection limit is 0.0005 µg/ml; values near or below 0.001 µg/ml lie at the floor of the assay.

Key:
Assay in all cases: pseudovirus neutralization IC50; higher = weaker neutralization
[1] = target: SARS-CoV-2 Omicron BA.1 spike pseudovirus
Procedure: (§1)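 Single-round VSV luciferase pseudovirus mixed with antibody dilutions for 1 h and put on Huh-7 cells for about a day; IC50 from the dose curve.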

[2] = target: SARS-CoV-2 Omicron BA.2 spike pseudovirus
Procedure: as §1

[3] = target: SARS-CoV-2 Omicron BA.2.75 spike pseudovirus
Procedure: as §1

[4] = target: SARS-CoV-2 Omicron BA.5 spike pseudovirus
Procedure: as §1

[5] = target: SARS-CoV-2 Omicron BQ.1.1 spike pseudovirus
Procedure: as §1

[6] = target: SARS-CoV-2 Omicron XBB spike pseudovirus
Procedure: as §1

[7] = target: SARS-CoV-2 early D614G spike pseudovirus
Procedure: as §1

B1: BD55-6479 (protein)
chain 1: QEQLQQWGAGLLKPAETLSLTCALYGGSFSVYYWTWIRQSPGKGLEWIGEINQSGTTTYNPSLKSRVTISVDTSKKQFSLKLNSVTAADTAVYYCARESSAAVIDNWGQGTLVTVSS
chain 2: QSALTQPASVSGSPGQSITISCTGSSSDIGRFNYVSWYQLHPGKAPKLMIYDVNKRPSGVSDRFSGSKSGNTASLTLSGLQTDDEADYYCSSYTSSSTYLLFGGGTKLTVL
pseudovirus neutralization IC50 [1]: > 10 µg/mL | pseudovirus neutralization IC50 [2]: > 10 µg/mL | pseudovirus neutralization IC50 [3]: > 10 µg/mL | pseudovirus neutralization IC50 [4]: > 10 µg/mL | pseudovirus neutralization IC50 [5]: > 10 µg/mL | pseudovirus neutralization IC50 [6]: > 10 µg/mL | pseudovirus neutralization IC50 [7]: 1.43 µg/mL

B2: BD55-6486 (protein)
chain 1: QVQLVQSGAEAKKPGSSVKVSCKASRGTFSTYTFTWVRQAPGQGLEWMGRILPIVGVTDLAQKFQGRVTITADKSTNTAYMELSSLRSEDTAVYFCARENPFPTRLYSGYDFLDLGAFDIWGQGTVVTVSS
chain 2: EIVLTQSPGTLSLSPGERATLSCRASQSVGSSLLAWYQQRPGQAPRLLIYGASSRATGIPDRFSGSGSGTDFTLTISRLEPEDFAVYYCHQYGGSPYTFGQGTKLEMK
pseudovirus neutralization IC50 [1]: 0.735 µg/mL | pseudovirus neutralization IC50 [2]: > 10 µg/mL | pseudovirus neutralization IC50 [3]: > 10 µg/mL | pseudovirus neutralization IC50 [4]: > 10 µg/mL | pseudovirus neutralization IC50 [5]: > 10 µg/mL | pseudovirus neutralization IC50 [6]: > 10 µg/mL | pseudovirus neutralization IC50 [7]: 0.0109 µg/mL

B3: BD55-6413 (protein)
chain 1: QVQLVQSGSELKKPGASMKVSCKASGYTFTTYALKWVRQAPGQGLEWMGWINTNTGNPTYAQGFTGRFVFSLDTSVSTAYLQISSLRAEDTAVYYCARVFCSYDKCYDVDYWGQGTLITVSS
chain 2: QSVLTQPPSASGTPGQRVTISCSGSTSNIGNNFVYWYQQLPGTAPKLLIFRNTHRPSGVPDRFSGSKSGTSASLAISGLRSEDEADYYCASWDDSLSGRVFGGGTKLAVL
pseudovirus neutralization IC50 [1]: > 10 µg/mL | pseudovirus neutralization IC50 [2]: > 10 µg/mL | pseudovirus neutralization IC50 [3]: > 10 µg/mL | pseudovirus neutralization IC50 [4]: > 10 µg/mL | pseudovirus neutralization IC50 [5]: > 10 µg/mL | pseudovirus neutralization IC50 [6]: > 10 µg/mL | pseudovirus neutralization IC50 [7]: 0.0965 µg/mL

B4: BD55-6460 (protein)
chain 1: HVQLVQSGAEVKKPGSSVKVSCKTSGGPFSTYAVSWVRQAPGQGLEWMGGLIPTFGTPYYAQKFQGRFTVAADESTDTVYMELSSLTFEDTAVYYCARGAVLYWFGEAFDYWGQGTLVAVSS
chain 2: QSALTQPPSASGSPGQSVTISCTGTGSDIGGYNYVSWYQQHPGTAPKLIIYEVNKRPSGVPDRFSGSKSGNTASLTVSGLLAEDEAVYYCSSYGVINNVIVVFGGGTMLTVL
pseudovirus neutralization IC50 [1]: > 10 µg/mL | pseudovirus neutralization IC50 [2]: > 10 µg/mL | pseudovirus neutralization IC50 [3]: > 10 µg/mL | pseudovirus neutralization IC50 [4]: > 10 µg/mL | pseudovirus neutralization IC50 [5]: > 10 µg/mL | pseudovirus neutralization IC50 [6]: > 10 µg/mL | pseudovirus neutralization IC50 [7]: > 10 µg/mL

B5: BD55-6463 (protein)
chain 1: QVLLVQSGAEVKKPGASVKVSCKASGYIFTSCDINWVRQAPGQGLEWMGWMNPSSGDTGSAHKFQGRVTMTRDTSISTAFMELSSLRSEDTAVYYCAIAFSSASQPLLFVDYYYGWDVWGQGTTVTVSS
chain 2: DIQMTQSPSSLSASVGDRVTITCRASLSIDNSLNWYQQKPGKAPNLLIYAASSLQSGVPSRFSGRGSGTDFTLTISSLQPEDFATYFCQQSYSTPPTFGGGTKVEIK
pseudovirus neutralization IC50 [1]: > 10 µg/mL | pseudovirus neutralization IC50 [2]: > 10 µg/mL | pseudovirus neutralization IC50 [3]: > 10 µg/mL | pseudovirus neutralization IC50 [4]: > 10 µg/mL | pseudovirus neutralization IC50 [5]: > 10 µg/mL | pseudovirus neutralization IC50 [6]: > 10 µg/mL | pseudovirus neutralization IC50 [7]: > 10 µg/mL

B6: BD55-1249 (protein)
chain 1: EVQLLESGGGLVQPGGSLRLSCVVSGFTFGSYAMSWVRQAPGKGLEWVSAITASGVSTYYAASVRGRFSISRDNSKNTLYLQMNGLRAEDTAVYYCAKDWASGPTDYFDYWGQGTLVTVSS
chain 2: DIQMTQSPSSLSASVGDRVTITCRSSQSISTYLNWYQQKPGKAPNLLIYAASRLQSGVPSRFSGSGSGTDFTLTISSLQPEDFATYYCQQSYNTPPWTFGQGTKVEVK
pseudovirus neutralization IC50 [1]: > 10 µg/mL | pseudovirus neutralization IC50 [2]: > 10 µg/mL | pseudovirus neutralization IC50 [3]: > 10 µg/mL | pseudovirus neutralization IC50 [4]: > 10 µg/mL | pseudovirus neutralization IC50 [5]: > 10 µg/mL | pseudovirus neutralization IC50 [6]: > 10 µg/mL | pseudovirus neutralization IC50 [7]: 0.0152 µg/mL

B7: BD55-6457 (protein)
chain 1: EVQLVESGGGLVQPGGSLRLSCAASGFTFNTYAMHWVRQAPGKGLEFVSSITSNGGGTFYANSVKGRFTISRDNSKNTLYLQMGSLRAEDMAVYYCAREGLDYFLYFDYWGQGALVTVSS
chain 2: DIQMTQSPSSLSASVGDRVTITCRASQSINIYLNWYQQKPGKAPKLLIYGASSLQNGVPSRFSGSGSGTEFTLTISSLQPEDFATYYCQQSYTTPTWTFGPGTKVEIK
pseudovirus neutralization IC50 [1]: > 10 µg/mL | pseudovirus neutralization IC50 [2]: > 10 µg/mL | pseudovirus neutralization IC50 [3]: > 10 µg/mL | pseudovirus neutralization IC50 [4]: > 10 µg/mL | pseudovirus neutralization IC50 [5]: > 10 µg/mL | pseudovirus neutralization IC50 [6]: > 10 µg/mL | pseudovirus neutralization IC50 [7]: > 10 µg/mL

B8: BD55-1251 (protein)
chain 1: EVQLVQSGAEVKKPGESLKISCQGSRSSFTNYWIGWVRQMPGKGLEWMGVIYPDDSDTRYSPSFQGQVTISADKSISVAYLQWSSLKASDTAMYYCARRRHITGFYHFDSWGQGTLVIVSS
chain 2: DIQMTQSPSSLSASIGDRVSITCRASQNIGDYVNWYQQKPGKAPQVLIYAASTLQSGVPSRFSGSGSGTDFTLTISSLQPEDFATYYCQQTYTVLETFGQGTKVDIK
pseudovirus neutralization IC50 [1]: 0.977 µg/mL | pseudovirus neutralization IC50 [2]: 1.69 µg/mL | pseudovirus neutralization IC50 [3]: 2.26 µg/mL | pseudovirus neutralization IC50 [4]: 1.57 µg/mL | pseudovirus neutralization IC50 [5]: > 10 µg/mL | pseudovirus neutralization IC50 [6]: > 10 µg/mL | pseudovirus neutralization IC50 [7]: 1.5 µg/mL

B9: BD55-6469 (protein)
chain 1: QVHLVQSGAEVKKPGASVKVSCKASGDTFPTYDFNWVRQAPGQGLEWMGWMSPKTGDTGYAHKFQGRVIMTRDTSRRTAYMELTSLRSEDTAVYYCARGVRTLPAAYNWFDPWGQGTLVTVSS
chain 2: DIQMTQSPSSLSASVGDKVTITCRASQSIGDYLHWYQHKPGKAPRLLVYAASNLQSGVPSRFSGLGSGTDFTLTISSLQPEDFATYYCQQSYSSSYTFGQGTKLEIK
pseudovirus neutralization IC50 [1]: > 10 µg/mL | pseudovirus neutralization IC50 [2]: > 10 µg/mL | pseudovirus neutralization IC50 [3]: > 10 µg/mL | pseudovirus neutralization IC50 [4]: > 10 µg/mL | pseudovirus neutralization IC50 [5]: > 10 µg/mL | pseudovirus neutralization IC50 [6]: > 10 µg/mL | pseudovirus neutralization IC50 [7]: > 10 µg/mL

B10: BD55-6423 (protein)
chain 1: QVQLVESGGGVVQPGGSLRLSCAASGFSFSDFAMHWVRQAPGKGLEWVAVISYHGTNEYYVDSVKGRFTISRDNSRKTLYLEMNSLRVEDTAVYYCATGGSFGDFSTYHYYAMDDWGQGTTVTVSS
chain 2: QSLLTQPPSASGTPGQRVIISCSGSSSNIGSNYVYWYQQLPGTAPKLLIYRNAQRPSGVPDRFSGSRSGTSASLAISGLRSEDEADYYCAAWDDSLSACVFGGGTKLTVL
pseudovirus neutralization IC50 [1]: > 10 µg/mL | pseudovirus neutralization IC50 [2]: > 10 µg/mL | pseudovirus neutralization IC50 [3]: > 10 µg/mL | pseudovirus neutralization IC50 [4]: > 10 µg/mL | pseudovirus neutralization IC50 [5]: > 10 µg/mL | pseudovirus neutralization IC50 [6]: > 10 µg/mL | pseudovirus neutralization IC50 [7]: > 10 µg/mL

B11: BD55-6438 (protein)
chain 1: QVQLRESGPGLVKPSETLSLTCTVSGDSMSSYYWSWIRQSAGKGLEWIGRIHPSGSTNHKSSLSGRVTMSVDTSKNQFSLLLRSVTAADTAVYYCARGGCSSTSCFGFYFYGMDVWGQGTTVTVSS
chain 2: DIQMTQSPSSLSASVGDRVTITCQASQDISNFLNWYQQKPGKAPKLLISAASNLETGVPSRFSGSGSGRDFTLTISSLLPEDFGTYYCQQYADLPLFGGGTKV
pseudovirus neutralization IC50 [1]: > 10 µg/mL | pseudovirus neutralization IC50 [2]: > 10 µg/mL | pseudovirus neutralization IC50 [3]: > 10 µg/mL | pseudovirus neutralization IC50 [4]: > 10 µg/mL | pseudovirus neutralization IC50 [5]: > 10 µg/mL | pseudovirus neutralization IC50 [6]: > 10 µg/mL | pseudovirus neutralization IC50 [7]: > 10 µg/mL

B12: BD55-6455 (protein)
chain 1: QVQLVESGGGVVQPGRSLRLSCAASGFSFTAFGIHWVRQAPGKGLEWVALVSEDGFNAYYADSLKGRFTISRDNSMHTVFLQMTSLRAEDTALYYCVRDSEFNNWKGSGAFGVWGQGTMVTVSS
chain 2: QSVLTQPPSVSGAPGQRVTVSCTGSSSNIGAGYDVHWYQQLPGTAPKLLIYGNDNRPSGVPDRFSGSKSGTSASLAITGLQAEDEADYYCQSYDSSVTGSSYVVFGGGTKLTVL
pseudovirus neutralization IC50 [1]: > 10 µg/mL | pseudovirus neutralization IC50 [2]: > 10 µg/mL | pseudovirus neutralization IC50 [3]: > 10 µg/mL | pseudovirus neutralization IC50 [4]: > 10 µg/mL | pseudovirus neutralization IC50 [5]: > 10 µg/mL | pseudovirus neutralization IC50 [6]: > 10 µg/mL | pseudovirus neutralization IC50 [7]: 2.67 µg/mL
